Measured data: PubChem BioAssay AID624099 (ICCB-Longwood, 2012)
The whole screen tested about 21,000 reagents; this is a part drawn at random. In the full data, 497 (2.4%) are marked active. 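Higher z means weaker E2 silencing; only reporter increases were scored, and knock-downs that hurt cell survival may mask genuine repressor factors.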 Reagents against one gene are numbered here. Reagent sequences are not shown.

Purpose: 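Host factors E2 relies on to silence an HPV18 LCR reporter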 (primary screen)
Cells: human C33A cervical carcinoma cells (HPV-negative) stably expressing BPV1 E2 and an HPV18 LCR luciferase reporter
Knock-down reagent: siRNA pool against human genes, 40 nM
Timing: 72 h
Read-out: 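HPV18 LCR reporter light per well, converted to plate-wise z-scores that exclude control wells, and averaged over triplicate plates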
Reading the numbers: mean z-score and z-score: higher = stronger reporter signal, weaker E2 silencing
Active means: 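Mean z ≥ 2 together with z ≥ 2 in two or more of the three replicates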

no.	target	pool no.	mean z-score	z-score, replicate A	z-score, replicate B	z-score, replicate C	call
1	WDR6	1	0.76	1.15	0.61	0.52	inactive
2	FARSA	1	0.01	0.14	-0.09	-0.02	inactive
3	ECHDC1	1	-0.29	-0.63	-0.22	-0.02	inactive
4	NPEPPSP1	1	-1.23	-1.63	-0.99	-1.06	inactive
5	NKX6-2	1	0.6	0.52	0.26	1.01	inactive
6	CYP11B2	1	-1.19	-0.95	-1.48	-1.15	inactive
7	CHD6	1	0.1	0	0.13	0.16	inactive
8	HEXB	1	-0.71	-0.89	-0.88	-0.36	inactive
9	POMK	1	-0.56	-0.33	-0.63	-0.7	inactive
10	ZMYND12	1	-0.6	-0.47	-0.7	-0.62	inactive
11	ALX1	1	-0.21	-0.06	0.14	-0.69	inactive
12	ZNF160	1	-0.77	-0.75	-0.55	-1	inactive
13	ZNF438	1	-0.24	-0.11	-0.55	-0.07	inactive
14	LOC727756 (retired record)	1	3.23	3.31	3.11	3.26	active
15	ZNF214	1	-0.75	-0.73	-0.65	-0.88	inactive
16	RND1	1	-0.68	-0.73	-0.59	-0.71	inactive
17	ZFR	1	1.08	1.24	1.12	0.88	inactive
18	TLX2	1	2.41	2.18	2.27	2.78	active
19	FASLG	1	-0.3	-0.05	-0.56	-0.29	inactive
20	SGPP1	1	-0.11	-0.31	0.3	-0.31	inactive
21	SLC16A12	1	-2	-1.88	-1.89	-2.22	inactive
22	LOC400093 (retired record)	1	0.17	0.17	0.16	0.2	inactive
23	COX7B	1	0.46	0.78	0.26	0.34	inactive
24	HNRNPM	1	0.24	0.33	0.28	0.12	inactive
25	NEK10	1	-0.08	0.25	-0.44	-0.06	inactive
26	KPNA2	1	0.22	0.38	0.02	0.26	inactive
27	KCNQ5	1	-0.56	-0.72	-0.44	-0.5	inactive
28	CUTC	1	0.89	1.02	1.16	0.48	inactive
29	C1orf87	1	0.36	0.43	0.35	0.3	inactive
30	AIM2	1	0.5	0.46	0.54	0.5	inactive
31	BAX	1	1.23	1.04	1.15	1.5	inactive
32	CASC15	1	-0.16	-0.06	-0.28	-0.15	inactive
33	CAND1	1	0.41	0.24	0.39	0.6	inactive
34	CD209	1	1.78	1.67	1.8	1.88	inactive
35	LINC00518	1	-0.55	-0.47	-0.72	-0.47	inactive
36	CKS1B	1	-0.82	-1.2	-0.58	-0.67	inactive
37	LOC400575 (retired record)	1	0.22	0.22	0.29	0.16	inactive
38	RBP1	1	1.84	1.59	1.93	2	inactive
39	SLC47A1	1	-0.79	-1.08	-0.67	-0.6	inactive
40	PPM1F	1	-0.66	-0.53	-0.61	-0.83	inactive
41	NXPE3	1	-1.3	-0.72	-1.69	-1.49	inactive
42	MAP3K14	1	-0.2	-0.19	-0.57	0.17	inactive
43	LOC128629 (retired record)	1	-0.98	-1.38	-0.95	-0.61	inactive
44	TPM3	1	-0.39	-0.35	-0.21	-0.62	inactive
45	SDK1	1	-0.04	-0.35	0.45	-0.23	inactive
46	FBXW10B	1	0.61	0.62	0.33	0.87	inactive
47	ARID3C	1	-0.92	-0.81	-0.88	-1.07	inactive
48	LINC00997	1	-0.97	-0.71	-1.17	-1.02	inactive
49	LINC00997	2	-0.76	-0.83	-0.45	-1.02	inactive
50	PZP	1	-0.26	-0.42	-0.17	-0.19	inactive
51	CCDC14	1	-1.19	-1.13	-1.05	-1.39	inactive
52	ASTN1	1	0.51	0.56	0.38	0.59	inactive
53	TMEM165	1	0.21	-0.04	0.32	0.34	inactive
54	CSMD1	1	-0.5	-0.35	-0.71	-0.43	inactive
55	ZNF205	1	0.42	0.48	0.56	0.23	inactive
56	TTC36	1	-1.26	-1.53	-1.66	-0.6	inactive
57	OTUD7A	1	-0.14	-0.09	-0.19		inactive

Reagents above with an active call (2):
target	pool no.	mean z-score	z-score, replicate A	z-score, replicate B	z-score, replicate C	call
LOC727756 (retired record)	1	3.23	3.31	3.11	3.26	active
TLX2	1	2.41	2.18	2.27	2.78	active
